Measured values published in publication PMC9127493 (Signal Transduction and Targeted Therapy, 2022).

System: SARS-CoV-2 wild-type isolate XM088T
Experiment: Antiviral efficacy assay, qRT-PCR of virus released in supernatants
Format: cell-based

Compound: Cc1ccc(NC(=O)c2cccc(C(F)(F)F)c2)cc1Nc1nc(-c2ccncc2)c2[nH]ccc2n1 [cmpd 24]
- selectivity index (SI, CC50/EC50): 4.21
